Measured values from several laboratories, pooled; numbers as filed in NIAID ChemDB.

Common to all: growth or infection tests; species: Rhinovirus; read-out: inhibition

Lines come from different laboratories, so protocols vary. An empty or dashed field is not shown. a–b is a range or a potency band. Inhibition is in % at the dose shown (toxicity tests: loss of growth or viability).

compound | strain or isolate | cell line | read by | dose | result
Cc1cc(CCCCCCCOc2ccc(C3=NCCO3)cc2)on1 | 100 serotypes |  |  | 1.5 µg/mL | 53%
CN(C)c1nc(C(F)(F)F)nc2c1ncn2Cc1ccccc1Cl | Serotype 21 | M-HELA | plaque count | 8 µM | 38%
Cc1cccc(C2=CCN(c3ccc(Br)nn3)CC2)c1 | 100 serotypes |  |  | 1.4 µg/mL | 71%
NS(=O)(=O)O |  | Human embryonic lung cells | cytopathic effect | 50 µg/mL | 0%
N#Cc1cc([N+](=O)[O-])ccc1Oc1ccc(Cl)c(Cl)c1 | HANK | VERO | plaque count | 1 µg/mL | 100%
Cc1ccc(N2CCC(c3cccc(C(F)(F)F)c3)C2)nn1 | 17 serotypes |  |  | 0.55 µg/mL | 53%
O=S(=O)(O)c1cc(O)c2c(O)cc(S(=O)(=O)O)cc2c1 |  | Human embryonic lung cells | cytopathic effect | 50 µg/mL | 10%
Cc1ccccc1Cn1cnc2c(N(C)C)nc(C(F)(F)F)nc21 | Serotype 2 | M-HELA | plaque count | 8 µM | 31%
O=C(O)c1ccc(S(=O)(=O)[O-])cc1C(=O)O |  | Human embryonic lung cells | cytopathic effect | 50 µg/mL | 0%
CN(C)c1nc(C(F)(F)F)nc2c1ncn2Cc1ccc([N+](=O)[O-])cc1 | Serotype 15 | M-HELA | plaque count | 8 µM | 31%
Cc1cccc(N2CCN(c3ccc(Br)nn3)CC2)c1 | 17 serotypes |  |  | 9 µg/mL | 71%
Cc1ccc(Cn2cnc3c(N(C)C)nc(C(F)(F)F)nc32)cc1C | Serotype 21 | M-HELA | plaque count | 8 µM | 16%
O=C1C(c2[nH]c3ccc(S(=O)(=O)O)cc3c2O)=Nc2ccc(S(=O)(=O)O)cc21 |  | Human amnion AV3 cells | cytopathic effect | 10 µg/mL | 17%
O=C(O)Cc1csc(/N=C2\SC[C@@H]3Cc4ccccc4CN23)n1 | Serotype 13 | MRC-5 | cytopathic effect | 60 µg/mL | 80–100%
CN(C)c1nc(C(F)(F)F)nc2c1ncn2Cc1ccc(Br)cc1 | Serotype 19 | M-HELA | plaque count | 8 µM | 27%

Repeating the first 2 entries:

compound | strain or isolate | cell line | read by | dose | result
Cc1cc(CCCCCCCOc2ccc(C3=NCCO3)cc2)on1 | 100 serotypes |  |  | 1.5 µg/mL | 53%
CN(C)c1nc(C(F)(F)F)nc2c1ncn2Cc1ccccc1Cl | Serotype 21 | M-HELA | plaque count | 8 µM | 38%